Results of unrelated studies side by side (data: NIAID ChemDB).

Common to all: whole-cell or culture tests; species: Candida albicans; read by: broth dilution; read-out: MIC

Neighbouring rows are from separate reports.

structure,strain or isolate,value
Cc1ccc(N2NOC(=O)C2S(=O)(=O)Nc2nc(-c3c(Cl)cccc3Cl)cs2)cc1,MTCC 227,1000 µg/mL
Cc1ccc2nc(N3CCOCC3)c(/C=C(/C#N)c3nc4ccccc4[nH]3)cc2c1,MTCC 227,500 µg/mL
C[C@H]1[C@H](O)[C@@H](C)/C=C/C=C/C=C/C=C/C=C/C=C/C=C/[C@H](O[C@@H]2O[C@H](C)[C@@H](O)[C@H](N)[C@@H]2O)C[C@@H]2O[C@](O)(C[C@@H](O)C[C@@H](O)CC[C@H](O)[C@@H](O)C[C@@H](O)CC(=O)O[C@H]1C)C[C@H](O)[C@H]2C(=O)O,ATCC 10231,0.5–1 µg/mL
COc1ccc2nc(NS(=O)(=O)C3C(=O)ONN3c3ccc(C)cc3)sc2c1,MTCC 227,500 µg/mL
O=C1NC(=S)SC1C(Sc1ccccc1)c1ccc2ccccc2c1,ATCC 2091,64 µg/mL
C=CCc1ccc(O)c(-c2ccc(O)c(CC=C)c2)c1,YL 363,128 µg/mL
COc1ccc(-c2csc(NS(=O)(=O)C3C(=O)ONN3c3ccc(C)cc3)n2)cc1,MTCC 227,500 µg/mL
O=C1NC(=S)SC1C(O)c1ccc(Cl)cc1Cl,ATCC 2091,64 µg/mL
Cc1ccc(N2NOC(=O)C2S(=O)(=O)Nc2nc3cc(C)ccc3s2)cc1,MTCC 227,500 µg/mL
N#CC1=C(N)N(c2nc(-c3ccccc3)cs2)C2=C(C(=O)CCC2)C1c1cc2cc(Cl)ccc2nc1F,MTCC 227,1000 µg/mL
Cc1ccc2nc(/C(C#N)=C\c3cc4ccccc4nc3N3CCOCC3)[nH]c2c1,MTCC 227,>1000 µg/mL
Clc1ccc([Se][Se]c2ccc(Cl)cc2)cc1,,>64 µg/mL
COC1=CC(=O)C[C@@H](C)[C@]12Oc1c(Cl)c(OC)cc(OC)c1C2=O,MTCC 227,1000 µg/mL
O=C(/C=C/c1ccc(F)cc1)c1cccc(N(CCO)CCO)c1,ATCC 10231,32 µg/mL
O=[N+]([O-])c1cn(CC(O)CN2CCN(C(c3ccccc3)c3ccc(Cl)cc3)CC2)cn1,ATCC 76615,25 µg/mL
O=C(/C=C/c1ccccc1S(=O)(=O)O)c1cccc(N(CCO)CCO)c1,ATCC 10231,32 µg/mL
Cc1cccc(C(Sc2ccccc2)C2SC(=S)NC2=O)c1,ATCC 2091,32 µg/mL
Cc1ccc2nc(F)c(C3C(C#N)=C(N)N(c4nc(-c5ccc(Cl)cc5)cs4)C4=C3C(=O)CCC4)cc2c1,MTCC 227,500 µg/mL
Cc1cc2ncn(CC(=O)N3CCN(C(c4ccccc4)c4ccc(Cl)cc4)CC3)c2cc1C,ATCC 76615,25 µg/mL
O=C(/C=C/c1ccccc1F)c1cccc(N(CCO)CCO)c1,ATCC 10231,32 µg/mL
CCC(C)CC(C)CCCCCCCCC(=O)N[C@H]1C[C@@H](O)[C@H](NCCN)NC(=O)[C@@H]2[C@@H](O)CCN2C(=O)[C@H]([C@H](O)CCN)NC(=O)[C@H]([C@H](O)[C@@H](O)c2ccc(O)cc2)NC(=O)[C@@H]2C[C@@H](O)CN2C(=O)[C@H]([C@@H](C)O)NC1=O,1954,0.25 µg/mL
Clc1ccc(C(c2ccccc2)N2CCN(CCn3cncn3)CC2)cc1,ATCC 76615,100 µg/mL
N#CC1=C(N)N(c2nc(-c3ccc(Cl)cc3)cs2)C2=C(C(=O)CCC2)C1c1cc2ccccc2nc1F,MTCC 227,500 µg/mL
O=C(Cn1cnc2ccccc21)N1CCN(C(c2ccccc2)c2ccc(Cl)cc2)CC1,ATCC 76615,25 µg/mL
Cc1ccc2nc(C(C#N)Cc3cc4ccccc4nc3N3CCOCC3)[nH]c2c1,MTCC 227,250 µg/mL
CCOC(=O)C1=C(N)N(c2nc(-c3ccccc3O)cs2)C2=C(C(=O)CCC2)C1c1cc2ccccc2nc1F,MTCC 227,1000 µg/mL
COc1ccc2nc(N3CCOCC3)c(CC(C#N)c3nc4ccc(C)cc4[nH]3)cc2c1,MTCC 227,500 µg/mL
O=C1NC(=S)SC1C(Sc1ccccc1)c1ccccc1,ATCC 2091,64 µg/mL
O=C(CN1CCN(C(c2ccccc2)c2ccc(Cl)cc2)CC1)Cn1ccnc1-c1ccccc1,ATCC 76615,12.5 µg/mL
CCN(CC)N1C(=O)C(C(Sc2ccccc2)c2cccc(C)c2)SC1=S,ATCC 2091,32 µg/mL
Cc1ccc(N2NOC(=O)C2S(=O)(=O)Nc2nc(-c3c(F)cc(Cl)cc3Cl)cs2)cc1,MTCC 227,250 µg/mL
Cc1nc([N+](=O)[O-])cn1CC(=O)CN1CCN(C(c2ccccc2)c2ccc(Cl)cc2)CC1,ATCC 76615,100 µg/mL
FC(F)(F)c1cccc([Se][Se]c2cccc(C(F)(F)F)c2)c1,,>64 µg/mL
N#C/C(=C/c1cc2ccccc2nc1N1CCOCC1)c1nc2ccccc2[nH]1,MTCC 227,1000 µg/mL
Cc1ccc2nc(F)c(C3C(C#N)=C(N)N(c4nc(-c5ccccc5)cs4)C4=C3C(=O)CCC4)cc2c1,MTCC 227,1000 µg/mL

3 of the rows above, restated:

structure,strain or isolate,value
Cc1ccc(N2NOC(=O)C2S(=O)(=O)Nc2nc(-c3c(F)cc(Cl)cc3Cl)cs2)cc1,MTCC 227,250 µg/mL
Cc1cc2ncn(CC(=O)N3CCN(C(c4ccccc4)c4ccc(Cl)cc4)CC3)c2cc1C,ATCC 76615,25 µg/mL
O=C1NC(=S)SC1C(O)c1ccc(Cl)cc1Cl,ATCC 2091,64 µg/mL

a–b is a range or a potency band. An empty or dashed field is not shown.